Data published in PubChem BioAssay (NCATS).
The list shows a part of the results, in another mix than the full data. Results filed as inconclusive are left out. Calls of active or inactive are those of the source. Calls come from the whole dose curve; as a rule, active = well fitted inhibition curve with a large enough effect; inconclusive = small, poorly fitted or top-dose-only effect; inactive = flat fitted curve, though single readings scatter.

Key:
Assay in all cases: qHTS profiling for inhibitors of Plasmodium falciparum proliferation (AID 504749); note: nearly all actives have a fitted effect of over 60% in size;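 for activity, negative = inhibition: 0% = DMSO vehicle and full inhibition = artemisinin control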
CP215 = details: P. falciparum in erythrocytes, SYBR Green DNA, 72 h; at 28.7 µM (top of the series) unless noted
In short: (§1)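 Infected RBCs, 0.3% parasitemia/2.5% Hct final; cpd 72 h, 37 C, 5% CO2; lysis buffer with saponin/triton/SYBR Green I, o/n RT dark; FI 485/535; norm. to artemisinin (0.29 uM) and DMSO.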

CP217 = details: P. falciparum in erythrocytes, SYBR Green DNA, 72 h; at 28.7 µM (top of the series) unless noted
In short: as §1

CP237 = details: P. falciparum in erythrocytes, SYBR Green DNA, 72 h; series mostly up to 28.7 µM
In short: as §1

CP238 = details: P. falciparum in erythrocytes, SYBR Green DNA, 72 h; at 28.7 µM (top of the series) unless noted
In short: as §1

CP247 = details: P. falciparum in erythrocytes, SYBR Green DNA, 72 h; at 28.7 µM (top of the series) unless noted
In short: as §1

CP250 = details: P. falciparum in erythrocytes, SYBR Green DNA, 72 h; at 28.7 µM (top of the series) unless noted
In short: as §1

CP252 = details: P. falciparum in erythrocytes, SYBR Green DNA, 72 h; series mostly up to 28.7 µM
In short: as §1

CP256 = details: P. falciparum in erythrocytes, SYBR Green DNA, 72 h; series mostly up to 28.7 µM
In short: as §1

CP260 = details: P. falciparum in erythrocytes, SYBR Green DNA, 72 h; series mostly up to 28.7 µM
In short: as §1

CP262 = details: P. falciparum in erythrocytes, SYBR Green DNA, 72 h; at 28.7 µM (top of the series) unless noted
In short: as §1
Potency is the fitted concentration of half-maximal effect.

| Compound | activity, negative = inhibition (CP215) | activity, negative = inhibition (CP217) | Potency (CP237) | activity, negative = inhibition (CP238) | activity, negative = inhibition (CP247) | activity, negative = inhibition (CP250) | Potency (CP252) | Potency (CP256) | Potency (CP260) | activity, negative = inhibition (CP262) |
| --- | --- | --- | --- | --- | --- | --- | --- | --- | --- | --- |
| C/C1=C2N=C(/C=C3N=C(/C(C)=C4\[N-][C@@](C)([C@H]5N=C1[C@@](C)(CCC(=O)NC[C@H](C)OP(=O)([O-])O[C@@H]1[C@H](O)[C@H](n6cnc7cc(C)c(C)cc76)O[C@@H]1CO)[C@@H]5CC(N)=O)[C@](C)(CC(N)=O)[C@H]4CCC(N)=O)[C@@](C)(CC(N)=O)[C@@H]\3CCC(N)=O)C(C)(C)[C@@H]/2CCC(N)=O.[C-]#N.[Co+3] | inactive: 0.758% [at 12.8 µM] | inactive: 2.59% [at 12.8 µM] | inactive | inactive: 2.38% [at 12.8 µM] | inactive: 7.77% [at 12.8 µM] | inactive: 1.7% [at 12.8 µM] | inactive | inactive | inactive | inactive: -3.99% [at 12.8 µM] |
| O=[N+]([O-])c1cccc([N+](=O)[O-])c1 | inactive: -0.653% | inactive: 1.76% | inactive | inactive: 2.61% | inactive: 2.5% | inactive: 1.13% | inactive | inactive | inactive | inactive: 0.629% |
| O=[N+]([O-])OCC(CO[N+](=O)[O-])(CO[N+](=O)[O-])CO[N+](=O)[O-] | – | inactive: -21.8% | active: 4.47 µM | – | – | inactive: -29.1% | active: 11.2 µM | active: 7.08 µM | active: 6.31 µM | inactive: -15.4% |
| CC(C)OP(=O)(F)OC(C)C | inactive: 1.28% | inactive: -1.33% | inactive | inactive: 4.31% | inactive: -14.5% | inactive: -2.38% | inactive | inactive | inactive | inactive: -1.06% |
